Holding throughout (experiment): cell-based or functional assay
Assay [1] concerns the target H6tHAtev1S(146-206)L (Photinus pyralis).
In assay [2] the target is rat VAMP-2 aa 1-97 fused to an N-terminal thrombin cleavable His6tag (rat) (UniProt P63045).
Assay [3] addresses H6tHAtev1V(2-94)L (Photinus pyralis) (UniProt P63026).
Assay [4] addresses Recombinant rat SNAP-25 aa 1-206 fused to a C-terminal His6tag (rat) (UniProt P60881).

Among the data in EP3529371B1 are EC50 of substrate cleavage, endopeptidase assay, PBS pH 7.4, 1 h 37°C, SDS-PAGE and EC50 of substrate cleavage, endopeptidase assay, PBS pH 7.4, 1 h 37°C values, retold here.

A value given as a limit tells only on which side of the number the result lay.

In the case of “LC/C 1-436 fused to a C-terminal 6xHN-tag”, the EC50 of substrate cleavage, endopeptidase assay, PBS pH 7.4, 1 h 37°C, SDS-PAGE in assay [1] is > 3 µM.
Take “LC/G 1-435 fused to a C-terminal 6xHN-tag (enzyme)”: the EC50 of substrate cleavage, endopeptidase assay, PBS pH 7.4, 1 h 37°C in assay [2] and in assay [3] was > 10 µM throughout.
Turning to “LC/C 1-436 fused to a C-terminal 6xHN-tag (enzyme)”, the EC50 of substrate cleavage, endopeptidase assay, PBS pH 7.4, 1 h 37°C, SDS-PAGE in assay [4] was 2.1 µM.
As to “LC/D 1-436 fused to a C-terminal 6xHN-tag (enzyme)”, the EC50 of substrate cleavage, endopeptidase assay, PBS pH 7.4, 1 h 37°C in assay [2] came to 1 nM; in assay [3] it was 1.3 nM.
As for “LC/E1 1-411 fused to a C-terminal 6xHN-tag (enzyme)”, in assay [4], the EC50 of substrate cleavage, endopeptidase assay, PBS pH 7.4, 1 h 37°C, SDS-PAGE stood at 0.4 nM.
The same measure, in the same setting: with “LC/A1 1-429 fused to a C-terminal 6xHN-tag (enzyme)” the figure was 1.67 nM.
The substance “LC/E1 1-411 fused to a C-terminal 6xHN-tag” registered an EC50 of substrate cleavage, endopeptidase assay, PBS pH 7.4, 1 h 37°C, SDS-PAGE in assay [1] of 0.17 nM.
For the substance “LC/B1 1-436 fused to a C-terminal 6xHN-tag (enzyme)”, the EC50 of substrate cleavage, endopeptidase assay, PBS pH 7.4, 1 h 37°C in assay [2] came out at 60 nM; in assay [3], 160 nM.
In assay [2], “LC/F1 1-428 fused to a C-terminal 6xHN-tag (enzyme)” registered an EC50 of substrate cleavage, endopeptidase assay, PBS pH 7.4, 1 h 37°C of 2 nM.
In assay [2], “LC/T 1-438 fused to a C-terminal 6xHN-tag (enzyme)” gave an EC50 of substrate cleavage, endopeptidase assay, PBS pH 7.4, 1 h 37°C of 10 nM.
With “LC/A1 1-429 fused to a C-terminal 6xHN-tag”, the EC50 of substrate cleavage, endopeptidase assay, PBS pH 7.4, 1 h 37°C, SDS-PAGE in assay [1] stood at 0.87 nM.
